Source: patent US7388017B2, “Inhibitors of serine proteases, particularly hepatitis C virus NS3 protease” (Vertex Pharmaceuticals Incorporated, priority 1996, dated 2008)

Chains of the proteins cited; added tags and fusions are not shown. Residues count along the entry.
UniProt P27958, 1027-1208 limits assumed: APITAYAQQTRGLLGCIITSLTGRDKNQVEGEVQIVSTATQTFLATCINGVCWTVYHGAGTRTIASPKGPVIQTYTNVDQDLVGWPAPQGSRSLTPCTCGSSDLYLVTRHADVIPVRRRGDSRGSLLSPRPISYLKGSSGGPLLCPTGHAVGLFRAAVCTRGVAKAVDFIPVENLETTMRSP

target: HCV NS3 protease (Hepatitis C virus genotype 1a, UniProt P27958); test: Enzyme inhibition of HCV NS3 serine protease (cleavage of peptide substrate / EDVV AbuC-p-nitroanilide, with or without NS4A); format: biochemical; details: Enzyme inhibition data; Ki from rate vs [inhibitor] plots, Morrison tight binding competitive inhibition fit; 30 C, pH 7.8
Protocol: Cleavage reactions were quenched by the addition of an equal volume of a mixture of 10% TFA:acetonitrile (1:1) and activity was assessed on a reversed phase HPLC column (Rainin C18 Microsorb-MV, […], 4.6×250 mm; 0-50% acetonitrile, 0.1% TFA@ 3.33% min) using a Hewlett Packard 1050 instrument with auto-injection and diode array detection at 210 nm and 280 nm (where appropriate). Peptide elution fragments were collected and identified by mass spectrometry and N-terminal sequence analysis. Fragment identity and concentration was further verified by authentic, synthesized products. Initial rates of cleavage were determined at <20% substrate conversion and catalytic parameters were determined assuming Michaelis-Menten kinetics using the MultiFit program (Day Computing, Cambridge, Mass.).
Spectrophotometric assays were run in a 96-well microtiter plate at 30 C, using a SpectraMax 250 reader (Molecular Devices, Sunnyvale, Calif.) with kinetic capability. Cleavage of EDVV AbuC-p-nitroanilide (5A-pNA) substrate was performed with or without […] in the same buffer used for HPLC assays at 30 C, and pNA release was monitored at 405 nm. The extinction-coefficient of p-nitroaniline is independent of pH at values of 5.5. and above [Tuppy, H., et al., Hoppe-Seyler's Z. Physiol. Chem., 329, pp. 278-288 (1962)]; Raybuck and Luong, unpublished observations).
Kinetic constants for the rapid equilibrium ordered bisubstrate reaction were determined from rate vs [4A], [EDVV AbuC-pNA] data by non-linear least squares fitting to equation 1 [Morrison, J. F. Biochim. Biophys. Acta, 185, pp. 269-286 (1969)] as described in the text. Kii and Kis values for peptidyl inhibitors were determined from rate vs [inhibitor], [substrate] data and fitting to the equation for mixed inhibition: rate=Vmax[S]/{Km(1+[I]/Kis)+[S](1+[I]/Kii)} The commercial program KinetAsyst (StateCollege, Pa.) was used for both procedures. Ki values were calculated from rate vs [inhibitor] plots by a nonlinear least squares fit of the data to the equation of Morrison for tight binding competitive inhibition [Morrison, J. F. Biochim. Biophys. Acta, 185, pp. 269-286 (1969)]. The KineTic program (BioKin Ltd) was used for this procedure.
Ki values are expressed in μM. Category “A” indicates <1 μM inhibition; category “B” indicates 1-100 μM inhibition; category “C” indicates >100 μM.

Compound | Ki
CC[C@H](NC(=O)C(CC(C)C)NC(=O)C(NC(=O)C(NC(=O)c1cnccn1)C(C)C)C(C)C)C(=O)C(=O)O (some centres unmarked) | 1 to 100 µM
CC[C@@H](C=O)NC(=O)[C@@H]1C[C@@H](OCc2ccccc2)CN1C(=O)[C@@H](NC(=O)C1NCCc2ccccc21)C(C)C (some centres unmarked) | > 100 µM
CCC(C=O)NC(=O)C(CC(C)C)NC(=O)C(NC(=O)C(NC(=O)CCN1CCOCC1)C(C)C)C(C)C (centres unmarked) | 1 to 100 µM
CC[C@@H](C=O)NC(=O)[C@@H]1C[C@@H](OCc2ccccc2)CN1C(=O)C(NC(=O)/C=C\c1ccccc1)C(C)C (some centres unmarked) | 1 to 100 µM
CCC(C=O)NC(=O)C1CC(OCc2ccccc2)CN1C(=O)C(NC(=O)C(Cc1ccc(O)cc1)NC(=O)c1cnccn1)C(C)C (centres unmarked) | 1 to 100 µM
CC[C@@H](C=O)NC(=O)[C@@H]1C[C@@H](OC(=O)Nc2ccccc2)CN1C(=O)[C@@H](NC(=O)[C@@H](NC(=O)c1cnccn1)C(C)C)C(C)C | 1 to 100 µM
CC[C@@H](C=O)NC(=O)[C@@H]1C[C@@H](OCc2ccccc2)CN1C(=O)[C@@H](NC(=O)C(C#N)=C1CCCCC1)C(C)C | 1 to 100 µM
CC[C@@H](C=O)NC(=O)[C@@H]1C[C@@H](OCc2ccccc2)CN1C(=O)[C@@H](NC(=O)c1cccc(OC)c1OC)C(C)C | > 100 µM
CC[C@@H](C=O)NC(=O)[C@@H]1C[C@@H](OCc2ccccc2)CN1C(=O)[C@@H](NC(=O)C(F)c1ccccc1)C(C)C (some centres unmarked) | > 100 µM
CC[C@@H](C=O)NC(=O)[C@@H]1C[C@@H](NC(=O)C2CCCCC2)CN1C(=O)C(NC(=O)C(NC(=O)c1cnccn1)C(C)C)C(C)C (some centres unmarked) | > 100 µM
CCC(Oc1ccccc1)C(=O)N[C@H](C(=O)N1C[C@H](OCc2ccccc2)C[C@H]1C(=O)N[C@H](C=O)CC)C(C)C (some centres unmarked) | > 100 µM
